Test results taken from patent US20130137706A1, “Antimicrobial Molecules For Treating Multi-Drug Resistant and Extensively Drug Resistant Strains Of Mycobacterium” (POLYMEDIX, INC., priority 2008, published 2013).

System: M. tuberculosis (H37Rv strain)
Experiment: Microplate Alamar Blue Assay (MABA) susceptibility assay in BACTEC 12B medium
Assay type: cell-based, Mycobacterium tuberculosis
Conditions: for SI (EC50/IC90): EC50 VERO cells divided by IC90 M. tuberculosis H37Rv

SMILES | SI (EC50/IC90) | SI value (summary of Table 1, EC50/IC90)
CC(C)(C)c1cc(NC(=O)CCCCNC(=N)N)c(SCCN)c(NC(=O)Nc2cc(C(C)(C)C)cc(NC(=O)CCCCNC(=N)N)c2SCCN)c1 [Compound 4] | >16.3 | greater than 15
CC(C)(C)c1cc(N)c(SCCNC(=N)N)c(NC(=O)c2cc(OCCNC(=N)N)cc(C(=O)Nc3cc(C(C)(C)C)cc(N)c3SCCNC(=N)N)c2)c1 [Compound 1] | >136.4 | 
CC(C)(C)c1cc(N)c(SCCNC(=N)N)c(NC(=O)c2cc(C(=O)Nc3cc(C(C)(C)C)cc(N)c3SCCNC(=N)N)c(OCCNC(=N)N)cc2OCCNC(=N)N)c1 [Compound 2] | >66.7 | 
N=C(N)NCCCCC(=O)Nc1cccc(NC(=O)c2cc(C(=O)Nc3cccc(NC(=O)CCCCNC(=N)N)c3SCCN)ncn2)c1SCCN [Compound 3] | >27.8 | 
